{"source": "PubChem BioAssay AID1224833, University of Georgia – 2016", "aim": "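Host factors restraining rotavirus as candidate antiviral genes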 (primary screen)", "system": "monkey MA104 kidney cells", "reagent": "siRNA pool against human genes, 50 nM", "time to read-out": "48 h knock-down before infection; read 24 h after infection", "challenge": "infection with rotavirus strain RV3 two days after transfection; infectious dose for this stage not given", "measured": "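z-score of rotavirus antigen signal per well, from a fluorescent immunoassay, relative to non-targeting control wells on the same plate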", "scale": "z-score vs non-targeting control: higher = more rotavirus replication than with non-targeting control", "rule for the call": "In these data the active calls have z-score vs non-targeting control at about -1 or lower, or at about 1 or higher", "meaning of the calls": "active = z-score beyond 1 either way; inactive = z-score within 1 of zero", "note": "The deposit covers about 12,000 reagents; this is an unselected part. About 5,600 of them (46%) were called active. 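Active calls cover z-scores past 1 in both directions, so they include lowered as well as raised rotavirus replication.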 A number with no mark means an inactive call."}
{"Gene": "PCNX2 (GeneID 80003)", "z-score vs non-targeting control": -0.594}
{"Gene": "H4C6 (GeneID 8361)", "z-score vs non-targeting control": 0.674}
{"Gene": "DNAJA2 (GeneID 10294)", "z-score vs non-targeting control": 0.529}
{"Gene": "CPLX4 (GeneID 339302)", "z-score vs non-targeting control": "-1.7 (active)"}
{"Gene": "BBS4 (GeneID 585)", "z-score vs non-targeting control": "-1.9 (active)"}
{"Gene": "PLGLB1 (GeneID 5343)", "z-score vs non-targeting control": "-1.26 (active)"}
{"Gene": "CYSRT1 (GeneID 375791)", "z-score vs non-targeting control": 0.821}
{"Gene": "PISD (GeneID 23761)", "z-score vs non-targeting control": -0.558}
{"Gene": "ZNF629 (GeneID 23361)", "z-score vs non-targeting control": "-1.2 (active)"}
{"Gene": "ZNF106 (GeneID 64397)", "z-score vs non-targeting control": 0.351}
{"Gene": "FOSL1 (GeneID 8061)", "z-score vs non-targeting control": 0.536}
{"Gene": "ACO2 (GeneID 50)", "z-score vs non-targeting control": 0.608}
{"Gene": "ADA (GeneID 100)", "z-score vs non-targeting control": "-1.89 (active)"}
{"Gene": "SCGB1A1 (GeneID 7356)", "z-score vs non-targeting control": -0.371}
{"Gene": "F10 (GeneID 2159)", "z-score vs non-targeting control": "1.41 (active)"}
{"Gene": "SRSF6 (GeneID 6431)", "z-score vs non-targeting control": 0.88}
{"Gene": "VGF (GeneID 7425)", "z-score vs non-targeting control": "-3.3 (active)"}
{"Gene": "SNX29 (GeneID 92017)", "z-score vs non-targeting control": "-1.69 (active)"}
{"Gene": "ADRA2C (GeneID 152)", "z-score vs non-targeting control": "-1.53 (active)"}
{"Gene": "IL19 (GeneID 29949)", "z-score vs non-targeting control": 0.831}
{"Gene": "NISCH (GeneID 11188)", "z-score vs non-targeting control": "-2.15 (active)"}
{"Gene": "CYP1B1 (GeneID 1545)", "z-score vs non-targeting control": -0.83}
{"Gene": "CSPG5 (GeneID 10675)", "z-score vs non-targeting control": 0.843}
{"Gene": "GALP (GeneID 85569)", "z-score vs non-targeting control": "1.32 (active)"}
{"Gene": "RANBP9 (GeneID 10048)", "z-score vs non-targeting control": -0.976}
{"Gene": "NELFCD (GeneID 51497)", "z-score vs non-targeting control": -0.401}
{"Gene": "OR6T1 (GeneID 219874)", "z-score vs non-targeting control": -0.198}
{"Gene": "ARL4D (GeneID 379)", "z-score vs non-targeting control": -0.661}
{"Gene": "STAG3 (GeneID 10734)", "z-score vs non-targeting control": -0.282}
{"Gene": "FCGBP (GeneID 8857)", "z-score vs non-targeting control": 0.353}
{"Gene": "ZNF555 (GeneID 148254)", "z-score vs non-targeting control": "1.24 (active)"}
{"Gene": "DEPP1 (GeneID 11067)", "z-score vs non-targeting control": "-1.24 (active)"}
{"Gene": "STRAP (GeneID 11171)", "z-score vs non-targeting control": "-2.33 (active)"}
{"Gene": "KRT33B (GeneID 3884)", "z-score vs non-targeting control": "-2.36 (active)"}
{"Gene": "ZNF385A (GeneID 25946)", "z-score vs non-targeting control": -0.987}
{"Gene": "MSS51 (GeneID 118490)", "z-score vs non-targeting control": 0.475}
{"Gene": "ZNF652 (GeneID 22834)", "z-score vs non-targeting control": -0.669}
{"Gene": "FAM227B (GeneID 196951)", "z-score vs non-targeting control": -0.469}
{"Gene": "AKAP4 (GeneID 8852)", "z-score vs non-targeting control": "-1.36 (active)"}
{"Gene": "ZNG1C (GeneID 445571)", "z-score vs non-targeting control": 0.53}
{"Gene": "ODF2 (GeneID 4957)", "z-score vs non-targeting control": -0.376}
{"Gene": "ARB2A (GeneID 83989)", "z-score vs non-targeting control": "-1.08 (active)"}
{"Gene": "OPRK1 (GeneID 4986)", "z-score vs non-targeting control": "-1.89 (active)"}
{"Gene": "ARMC7 (GeneID 79637)", "z-score vs non-targeting control": "-4.66 (active)"}
{"Gene": "TBC1D16 (GeneID 125058)", "z-score vs non-targeting control": -0.155}
{"Gene": "NTSR1 (GeneID 4923)", "z-score vs non-targeting control": "-1.28 (active)"}
{"Gene": "ZDHHC20 (GeneID 253832)", "z-score vs non-targeting control": -0.565}

7 of these entries, set out differently.
| Gene | z-score vs non-targeting control |
| --- | --- |
| ZNF106 (GeneID 64397) | 0.351 |
| FOSL1 (GeneID 8061) | 0.536 |
| ACO2 (GeneID 50) | 0.608 |
| ADA (GeneID 100) | -1.89 (active) |
| SCGB1A1 (GeneID 7356) | -0.371 |
| F10 (GeneID 2159) | 1.41 (active) |
| SRSF6 (GeneID 6431) | 0.88 |
